Compound potency records, mixed from different reports. Data source: NIAID ChemDB in PubChem.

Shared fields: tests in culture; organism: Mycobacterium avium complex; endpoint: MIC

Neighbouring rows are from separate reports.

structure | strain or isolate | result
NC[C@H]1O[C@H](O[C@H]2[C@H](O)[C@@H](O[C@H]3O[C@H](CO)[C@@H](O)[C@H](N)[C@H]3O)[C@H](N)C[C@@H]2N)[C@H](N)[C@@H](O)[C@@H]1O | TMC 1403 | 0.39 µg/mL
CC1CN(c2cc3c(cc2F)c(=O)c(C(=O)O)cn3-c2ccc(F)cc2F)CCN1 | 3213 | 4 µg/mL
O=C(O)c1cn(C2CC2)c2c(F)c(N3CCS(=O)(=O)CC3)c(F)cc2c1=O | 1760694 | 4 µg/mL
CN[C@@H]1[C@H](O[C@H]2[C@H](O[C@H]3[C@H](O)[C@@H](O)[C@H](N=C(N)N)[C@@H](O)[C@@H]3N=C(N)N)O[C@@H](C)[C@]2(O)C=O)O[C@@H](CO)[C@H](O)[C@H]1O | isolate C-22 23 25 36 41 33 | ≥400 µg/mL
NC[C@H]1O[C@H](O[C@H]2[C@H](O[C@@H]3O[C@H](CO)[C@@H](O)[C@H]3O)[C@@H](O)[C@H](N)C[C@@H]2N)[C@H](N)[C@@H](O)[C@@H]1O | Isolate 122 | 25 µg/mL
CC[C@H]1OC(=O)[C@H](C)[C@@H](O[C@H]2C[C@@](C)(OC)[C@@H](O)[C@H](C)O2)[C@H](C)[C@@H](O[C@@H]2O[C@H](C)C[C@H](N(C)C)[C@H]2O)[C@](C)(OC)C[C@@H](C)C(=O)[C@H](C)[C@@H](O)[C@]1(C)O | 1069 | 16 µg/mL
CC[C@@H](CO)NCCN[C@@H](CC)CO | N-269 (HIV-) | 8 µg/mL
NCCC(O)C(N)CC(=O)NC1CNC(=O)C(C2CCN=C(N)N2)NC(=O)/C(=C/NC(N)=O)NC(=O)C(CO)NC(=O)C(CO)NC1=O | 13887 (serotype 14) | 1.6 µg/mL
O=C(O)c1cn(C2CC2)c2c(F)c(N3CC4C(CO)C4C3)c(F)cc2c1=O | 1988557 | 8 µg/mL
NC[C@H]1O[C@H](O[C@H]2[C@H](O)[C@@H](O[C@H]3O[C@H](CO)[C@@H](O)[C@H](N)[C@H]3O)[C@H](N)C[C@@H]2N)[C@H](O)[C@@H](O)[C@@H]1O | Isolate 64 | 6.25 µg/mL
CC1COc2c(N3CCN(C)CC3)c(F)cc3c(=O)c(C(=O)O)cn1c23 | CIPT 140310031 | 20 µg/mL
CO[C@H]1/C=C/O[C@@]2(C)Oc3c(C)c(O)c4c(O)c(c(/C=N/N5CCN(C)CC5)c(O)c4c3C2=O)NC(=O)/C(C)=C\C=C\[C@H](C)[C@H](O)[C@@H](C)[C@@H](O)[C@@H](C)[C@H](OC(C)=O)[C@@H]1C | 1069 | 8 µg/mL
NC[C@@H]1O[C@H](O[C@H]2[C@@H](O)[C@H](O[C@@H]3[C@@H](O)[C@H](N)C[C@H](N)[C@H]3O[C@H]3O[C@H](CO)[C@@H](O)[C@H](O)[C@H]3N)O[C@@H]2CO)[C@H](N)[C@@H](O)[C@@H]1O | Isolate 122 | 25 µg/mL
NCC[C@H](O)C(=O)N[C@@H]1C[C@H](N)[C@@H](O[C@H]2O[C@H](CN)[C@@H](O)[C@H](O)[C@H]2O)[C@H](O)[C@H]1O[C@H]1O[C@H](CO)[C@@H](O)[C@H](N)[C@H]1O | 3212 | 8 µg/mL
CN(C)CC1CCN(c2c(F)cc3c(=O)c(C(=O)O)cn(C4CC4)c3c2F)C1 | PI12/39 | 0.5 µg/mL
NC[C@@H]1O[C@H](O[C@H]2[C@@H](O)[C@H](O[C@@H]3[C@@H](O)[C@H](N)C[C@H](N)[C@H]3O[C@H]3O[C@H](CO)[C@@H](O)[C@H](O)[C@H]3N)O[C@@H]2CO)[C@H](N)[C@@H](O)[C@@H]1O | CH-4/HIV+ | 3.12 µg/mL
CC[C@@H](CO)NCCN[C@@H](CC)CO | 908-5 | 1.9 µg/mL
CC1COc2c(N3CCN(C)CC3)c(F)cc3c(=O)c(C(=O)O)cn1c23 | 1423/HIV+ | 8 µg/mL
CC[C@H]1OC(=O)[C@H](C)[C@@H](O[C@H]2C[C@@](C)(OC)[C@@H](O)[C@H](C)O2)[C@H](C)[C@@H](O[C@@H]2O[C@H](C)C[C@H](N(C)C)[C@H]2O)[C@](C)(O)C[C@@H](C)C(=O)[C@H](C)[C@@H](O)[C@]1(C)O | 3217 | 32 µg/mL
NC[C@@H]1O[C@H](O[C@H]2[C@@H](O)[C@H](O[C@@H]3[C@@H](O)[C@H](N)C[C@H](N)[C@H]3O[C@H]3O[C@H](CO)[C@@H](O)C[C@H]3N)O[C@@H]2CO)[C@H](N)[C@@H](O)[C@@H]1O[C@H]1O[C@H](CO)[C@@H](O)[C@H](O)[C@@H]1O | TMC 1406 | 0.39 µg/mL
CC(C)N=c1cc2n(-c3ccc(Cl)cc3)c3ccccc3nc-2cc1Nc1ccc(Cl)cc1 | 711/HIV- | 0.25 µg/mL
CO[C@H]1/C=C/O[C@@]2(C)Oc3c(C)c(O)c4c(O)c(c(/C=N/N5CCN(C/C=C/c6ccccc6)CC5)c(O)c4c3C2=O)NC(=O)/C(C)=C\C=C\[C@H](C)[C@H](O)[C@@H](C)[C@@H](O)[C@@H](C)[C@H](OC(C)=O)[C@@H]1C | CH2 | 0.25 µg/mL
CCC1CCN(c2c(F)cc3c(=O)c(C(=O)O)cn(C4CC4)c3c2F)C1 | 1988557 | 2 µg/mL
NCC[C@H](O)C(=O)N[C@@H]1C[C@H](N)[C@@H](O[C@H]2O[C@H](CN)[C@@H](O)[C@H](O)[C@H]2O)[C@H](O)[C@H]1O[C@H]1O[C@H](CO)[C@@H](O)[C@H](N)[C@H]1O | 542/HIV+ | <0.61 µg/mL
CN(C)c1c(F)c(N2CCC(N(C)C)C2)c(F)c2c1c(=O)c(C(=O)O)cn2C1CC1 | PI12/39 | 32 µg/mL
NC[C@H]1O[C@H](O[C@H]2[C@H](O)[C@@H](O[C@H]3O[C@H](CO)[C@@H](O)[C@H](N)[C@H]3O)[C@H](N)C[C@@H]2N)[C@H](O)[C@@H](O)[C@@H]1O | N-265 (HIV-) | 8 µg/mL
CC1CN(c2c(F)cc3c(=O)c(C(=O)O)cn(C4CC4)c3c2F)CC(C)N1 | 1988557 | 1 µg/mL
CC[C@@H](CO)NCCN[C@@H](CC)CO | 13008 (serotype 20) | 0.8 µg/mL
NCC1CCN(c2c(F)cc3c(=O)c(C(=O)O)cn(C4CC4)c3c2F)C1 | 1988557 | 2 µg/mL
CN[C@@H]1[C@H](O[C@H]2[C@H](O[C@H]3[C@H](O)[C@@H](O)[C@H](N=C(N)N)[C@@H](O)[C@@H]3N=C(N)N)O[C@@H](C)[C@]2(O)C=O)O[C@@H](CO)[C@H](O)[C@H]1O | TMC 1403 | 0.39 µg/mL
CCn1cc(C(=O)O)c(=O)c2cc(F)c(N3CCNCC3)cc21 | CIPT 140310034 | 10 µg/mL
O=C(O)c1cn(C2CC2)c2c(F)c(N3CCN4CCC3C4)c(F)cc2c1=O | 1915112 | 4 µg/mL